The values below come from patent US20170152290A1, “Beta hairpin peptides having antiviral properties against Dengue virus” (published 2017).

Assay [1] deals with T1, activated human alfa-2-macroglobulin (α2M_MeNH2) (human), P01023.
T1 chain: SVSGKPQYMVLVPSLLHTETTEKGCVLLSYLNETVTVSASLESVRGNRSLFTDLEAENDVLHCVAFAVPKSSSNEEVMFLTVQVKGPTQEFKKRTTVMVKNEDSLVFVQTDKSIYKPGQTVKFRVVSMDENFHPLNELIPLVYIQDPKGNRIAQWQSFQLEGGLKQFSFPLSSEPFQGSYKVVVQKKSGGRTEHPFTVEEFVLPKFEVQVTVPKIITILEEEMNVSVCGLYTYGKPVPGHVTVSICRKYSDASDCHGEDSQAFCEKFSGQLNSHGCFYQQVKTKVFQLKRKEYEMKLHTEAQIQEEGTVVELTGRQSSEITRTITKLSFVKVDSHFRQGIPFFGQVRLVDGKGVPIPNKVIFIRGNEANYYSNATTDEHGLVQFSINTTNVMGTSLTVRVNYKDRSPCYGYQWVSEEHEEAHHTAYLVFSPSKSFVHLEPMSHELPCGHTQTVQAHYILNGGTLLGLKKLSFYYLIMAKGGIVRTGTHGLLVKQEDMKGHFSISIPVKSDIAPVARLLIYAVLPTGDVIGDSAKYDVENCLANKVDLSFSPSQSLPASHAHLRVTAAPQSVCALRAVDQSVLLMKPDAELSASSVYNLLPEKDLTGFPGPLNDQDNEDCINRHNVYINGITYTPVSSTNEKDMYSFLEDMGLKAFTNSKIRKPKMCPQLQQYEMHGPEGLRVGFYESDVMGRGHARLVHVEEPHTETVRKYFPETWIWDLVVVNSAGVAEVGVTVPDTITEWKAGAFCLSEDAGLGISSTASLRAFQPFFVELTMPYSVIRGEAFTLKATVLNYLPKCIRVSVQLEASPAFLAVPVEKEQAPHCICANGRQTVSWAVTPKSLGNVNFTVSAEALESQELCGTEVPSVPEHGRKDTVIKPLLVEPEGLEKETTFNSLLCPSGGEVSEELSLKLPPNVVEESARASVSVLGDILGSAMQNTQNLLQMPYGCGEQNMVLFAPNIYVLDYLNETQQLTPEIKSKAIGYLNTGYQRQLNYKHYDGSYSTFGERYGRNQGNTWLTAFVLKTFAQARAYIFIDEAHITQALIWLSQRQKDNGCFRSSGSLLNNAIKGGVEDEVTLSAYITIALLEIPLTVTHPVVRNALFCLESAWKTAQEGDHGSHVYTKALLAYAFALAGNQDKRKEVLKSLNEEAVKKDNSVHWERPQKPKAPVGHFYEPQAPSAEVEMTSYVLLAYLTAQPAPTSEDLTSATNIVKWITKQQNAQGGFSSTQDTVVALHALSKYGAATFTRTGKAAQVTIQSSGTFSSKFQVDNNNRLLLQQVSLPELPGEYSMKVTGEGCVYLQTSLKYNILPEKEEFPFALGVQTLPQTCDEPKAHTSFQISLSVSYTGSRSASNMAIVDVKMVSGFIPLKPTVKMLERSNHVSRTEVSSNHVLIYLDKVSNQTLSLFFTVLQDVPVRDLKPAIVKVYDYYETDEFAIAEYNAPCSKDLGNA
As to the kind of experiment: competition ELISA, α2M* coated, DIIIE1Jbiot as labelled ligand. Background: An ELISA detects its analyte on a solid surface through an enzyme-linked reagent.

The target in assay [2] is LRP1 receptor (Low Density Lipoprotein Receptor-Related Protein) on Vero cells. Put plainly: cell-based or functional assay.
Assay [3] addresses sLRP1-CIV (cluster IV of LRP1 fused to the constant region of a human IgG1) (human). As to the kind of experiment: SPR (Biacore X), sLRP1-CIV immobilised on CM5 chip, peptide at 20 µM; RU observed at 160 s.

On to CSNIVIGIGDKALKINWCKK (modifications not checked) [peptide HDIII3CL], for which the maximum inhibition percentage in assay [1] is 18%. In assay [2], this molecule displayed an Antiviral activity IC50 vs DENV1 (plaque reduction, Vero cells) of 15 µM; an Antiviral activity IC50 vs DENV2 (plaque reduction, Vero cells) of 20 µM; an Antiviral activity IC50 vs DENV3 (plaque reduction, Vero cells) of 20 µM; an Antiviral activity IC50 vs DENV4 (plaque reduction, Vero cells) of 50 µM. Further, in assay [2], the Antiviral activity in Vero cells, IC50 (plaque reduction, DENV2) came to 20 µM. For the same molecule, in assay [3], the RU (at 160 s) came to 562 RU.
